Results reported in US8163745B2, “HIV inhibiting 5-(hydroxymethylene and aminomethylene) substituted pyrimidines” (Tibotec Pharmaceuticals Ltd., priority 2006, dated 2012).

tested on: wild type HIV strain IIIB; experiment: Cellular anti-HIV assay in MT4 LTR-EGFP cells (GFP fluorescence), strain IIIB; cytotoxicity in mock-infected MT4 CMV-EGFP cells for the selectivity index; format: cell-based, HIV-1; settings: not given
Description: The antiviral activity of the compound of the present invention has been evaluated in the presence of wild type HIV and HIV mutants bearing mutations at the reverse transcriptase gene. The activity of the compounds is evaluated using a cellular assay which was performed according to the following procedure.
The human T-cell line MT4 is engineered with Green Fluorescent Protein (GFP) and an HIV-specific promoter, HIV-1 long terminal repeat (LTR). This cell line is designated MT4 LTR-EGFP, and can be used for the in vitro evaluation of anti-HIV activity of investigational compounds. In HIV-1 infected cells, the Tat protein is produced which upregulates the LTR promotor and finally leads to stimulation of the GFP reporter production, allowing to measure ongoing HIV-infection fluorometrically.
Analogously, MT4 cells are engineered with GFP and the constitutional cytomegalovirus (CMV) promotor. This cell line is designated MT4 CMV-EGFP, and can be used for the in vitro evaluation of cytotoxicity of investigational compounds. In this cell line, GFP levels are comparably to those of infected MT4 LTR-EGFP cells. Cytotoxic investigational compounds reduce GFP levels of mock-infected MT4 CMV-EGFP cells.
Effective concentration values such as 50% effective concentration (EC50) can be determined and are usually expressed in μM. An EC50 value is defined as the concentration of test compound that reduces the fluorescence of HIV-infected cells by 50%. The 50% cytotoxic concentration (CC50 in μM) is defined as the concentration of test compound that reduces fluorescence of the mock-infected cells by 50%. The ratio of CC50 to EC50 is defined as the selectivity index (SI) and is an indication of the selectivity of the anti-HIV activity of the inhibitor. The ultimate monitoring of HIV-1 infection and cytotoxicity is done using a scanning microscope. Image analysis allows very sensitive detection of viral infection. Measurements are done before cell necrosis, which usually takes place about five days after infection, in particular measurements are performed three days after infection.
The columns IIIB, L100I, etc. in the table list the pEC50 values against various strains IIIB, L100I, etc.
Strain IIIB is wild type HIV strain.

| SMILES | pSi (IIIB) |
| --- | --- |
| C=CC(O)(c1nccs1)c1cnc(Nc2ccc(C#N)cc2)nc1Nc1c(C)cc(/C=C/C#N)cc1C (stereo not shown) [Compound 27] | 2.78 |

same assay, conditions: selectivity index = ratio of CC50 (mock-infected MT4 CMV-EGFP cells) to EC50 (strain IIIB), printed as pSI

| SMILES | pSi (IIIB) |
| --- | --- |
| Cc1cc(/C=C/C#N)cc(C)c1Nc1nc(Nc2ccc(C#N)cc2)ncc1C(O)c1ccccn1 (stereo not shown) [Compound 2] | 3.63 |
| Cc1cc(/C=C/C#N)cc(C)c1Nc1nc(Nc2ccc(C#N)cc2)ncc1C(O)c1cccnc1 (stereo not shown) [Compound 4] | 3.87 |
| COc1ccccc1C(O)c1cnc(Nc2ccc(C#N)cc2)nc1Nc1c(C)cc(/C=C/C#N)cc1C (stereo not shown) [Compound 5] | 3.78 |
| Cc1csc(CC(O)c2cnc(Nc3ccc(C#N)cc3)nc2Nc2c(C)cc(/C=C/C#N)cc2C)n1 (stereo not shown) [Compound 6] | 3.36 |
| Cc1cnc(C(O)c2cnc(Nc3ccc(C#N)cc3)nc2Nc2c(C)cc(/C=C/C#N)cc2C)s1 (stereo not shown) [Compound 7] | 3.15 |
| Cc1csc(C(O)c2cnc(Nc3ccc(C#N)cc3)nc2Nc2c(C)cc(/C=C/C#N)cc2C)n1 (stereo not shown) [Compound 8] | 3.53 |
| Cc1cc(/C=C/C#N)cc(C)c1Nc1nc(Nc2ccc(C#N)cc2)ncc1C(O)C1CCCC1 (stereo not shown) [Compound 9] | 2.94 |
| Cc1cc(/C=C/C#N)cc(C)c1Nc1nc(Nc2ccc(C#N)cc2)ncc1C(O)c1cncs1 (stereo not shown) [Compound 10] | 3.50 |
| Cc1cc(/C=C/C#N)cc(C)c1Nc1nc(Nc2ccc(C#N)cc2)ncc1C(O)c1nccn1C (stereo not shown) [Compound 11] | 3.78 |
| C=CC(O)c1cnc(Nc2ccc(C#N)cc2)nc1Nc1c(C)cc(/C=C/C#N)cc1C (stereo not shown) [Compound 12] | 3.34 |
| Cc1cc(/C=C/C#N)cc(C)c1Nc1nc(Nc2ccc(C#N)cc2)ncc1C(O)C#Cc1cncn1C (stereo not shown) [Compound 13] | 3.84 |
| Cc1cc(/C=C/C#N)cc(C)c1Nc1nc(Nc2ccc(C#N)cc2)ncc1C(O)c1nc2ccccc2s1 (stereo not shown) [Compound 14] | 2.95 |
| Cc1cc(/C=C/C#N)cc(C)c1Nc1nc(Nc2ccc(C#N)cc2)ncc1C(O)c1scnc1Br (stereo not shown) [Compound 15] | 3.26 |
| Cc1cc(/C=C/C#N)cc(C)c1Nc1nc(Nc2ccc(C#N)cc2)ncc1C(O)c1cn2ccnc2s1 (stereo not shown) [Compound 16] | 3.00 |
| Cc1cc(/C=C/C#N)cc(C)c1Nc1nc(Nc2ccc(C#N)cc2)ncc1C(O)c1csc2nc(Cl)cn12 (stereo not shown) [Compound 18] | 3.14 |
| CCC(O)(c1nccs1)c1cnc(Nc2ccc(C#N)cc2)nc1Nc1c(C)cc(/C=C/C#N)cc1C (stereo not shown) [Compound 22] | 2.97 |
| Cc1cc(/C=C/C#N)cc(C)c1Nc1nc(Nc2ccc(C#N)cc2)ncc1C(C)(O)c1nccs1 (stereo not shown) [Compound 25] | 2.79 |
| Cc1cc(/C=C/C#N)cc(C)c1Nc1nc(Nc2ccc(C#N)cc2)ncc1C(O)(c1nccs1)C(C)C (stereo not shown) [Compound 26] | 2.05 |
